Anti-infective test results gathered from many reports (values: NIAID ChemDB through PubChem).

All rows: whole-cell or culture tests; organism: Candida albicans; endpoint: MIC

Neighbouring rows are from separate reports. An empty or dashed field is not shown.

SMILES | strain or isolate | method | result
Nc1ccc(NC(=O)Cc2ccc(Cl)cc2)c(O)c1 | ATCC 10231 |  | 62.5 µg/mL
C[C@@H](n1cnc2cc(N(C)C)ccc2c1=O)[C@](O)(Cn1cncn1)c1ccc(F)cc1F | 76 strains |  | 5 µg/mL
CC[C@@H]([C@H](C)O)n1ncn(-c2ccc(N3CCN(c4ccc(OC[C@@H]5CO[C@@](Cn6cncn6)(c6ccc(F)cc6F)C5)cc4)CC3)cc2)c1=O | Isolate CA-6 |  | >4 µg/mL
COc1ccc(-c2[nH]c3ccccc3c2-c2c(CN)c(N)n3c(nc4ccccc43)c2CN)cc1 | MTCC 227 | broth dilution | 500 µg/mL
CCCCCCCCCCCC[N+](C)(C)COCC(C)CCC | ATCC 10231 |  | 27.5 µM
CCC/C=C/C=C/C=C/C(=O)OCC1O[C@@H](OC2C(CO)O[C@]3(OCc4cc(O)cc(O)c43)[C@H](O)[C@H]2OC(=O)/C=C/C=C/CC(O)/C=C/C=C/C=C/CCC)[C@H](O)[C@@H](O)[C@H]1O | IAM4888 |  | 0.2 µg/mL
C[C@@H]1[C@@H](COCC(=O)O)C[C@@H](O[C@H]2[C@H](O)[C@@H](N(Cc3ccc(Br)cc3)CC(O)C[N+](C)(C)C)[C@H](O[C@H]3[C@H](O)[C@@H](N(Cc4ccc(Br)cc4)CC(O)C[N+](C)(C)C)[C@H](C)O[C@@H]3COCC(=O)O)O[C@@H]2COCC(=O)O)[C@H](N(Cc2ccc(Br)cc2)CC(O)C[N+](C)(C)C)[C@H]1O | RCMB 05031 | broth dilution | 15.25 µg/mL
Fc1ccc(CCCCn2c3c(c4cc(F)ccc42)CNCC3)cc1 | OY8-47 |  | 1 µg/mL
CCCCCCCCCCCC[N+](C)(C)COCC(CC)CCC | ATCC 10231 |  | 12.8 µM
C[C@@H](n1cnc2ccc(F)cc2c1=O)[C@](O)(Cn1cncn1)c1ccc(F)cc1F | 406 strains |  | 0.07 µg/mL
CC(C)(C)CSc1cc(=S)ss1 | Clinical isolate 00-604 |  | 8 µg/mL
Cc1nn(-c2ccccc2)c2c1C(c1cccc(Br)c1)C(C#N)=C(N)O2 | MTCC 227 |  | 100 µg/mL
Cc1ccc(-c2[nH]c3ccccc3c2-c2c(CN)c(N)n3c(nc4ccccc43)c2CN)cc1 | MTCC 227 | broth dilution | 1000 µg/mL
COc1cccc(C2=CC(C)OC2=O)c1 | ATCC 44859 |  | 62.5 µM
C[C@H]1[C@H](O)[C@@H](C)/C=C/C=C/C=C/C=C/C=C/C=C/C=C/[C@H](O[C@@H]2O[C@H](C)[C@@H](O)[C@H](N)[C@@H]2O)C[C@@H]2O[C@](O)(C[C@@H](O)C[C@@H](O)CC[C@H](O)[C@@H](O)C[C@@H](O)CC(=O)O[C@H]1C)C[C@H](O)[C@H]2C(=O)O | B311 |  | 1.25 µg/mL
CCCC(=O)/C=C1\Sc2ccccc2N1/C1=C/CCCCCCCCCC1 | ATCC 14053 |  | >100 µg/mL
CC1C=C(c2ccccc2)C(=O)O1 | ATCC 44859 |  | >125 µM
C[C@H]1[C@H](O)[C@@H](C)/C=C/C=C/C=C/C=C/C=C/C=C/C=C/[C@H](O[C@@H]2O[C@H](C)[C@@H](O)[C@H](N)[C@@H]2O)C[C@@H]2O[C@](O)(C[C@@H](O)C[C@@H](O)CC[C@H](O)[C@@H](O)C[C@@H](O)CC(=O)O[C@H]1C)C[C@H](O)[C@H]2C(=O)O | B311 |  | 0.125 µg/mL
CCC(C)CCCCCCC1CC(=O)NCC(=O)N[C@@H](CCCN)C(=O)N[C@@H](C(C)CC)C(=O)N1 | IFM 40009 |  | 2.5 µg/mL
Cc1nn(-c2ccccc2)c2c1C(c1cccc([N+](=O)[O-])c1)C(C#N)=C(N)O2 | MTCC 227 |  | 500 µg/mL
CCCCCCCCCCCC[N+](C)(C)COCC(CC)CC | ATCC 10231 |  | 27.5 µM
Cc1nn(-c2ccccc2)c2c1C(c1cccc([N+](=O)[O-])c1)c1c(nc(=O)[nH]c1N)O2 | MTCC 227 |  | 1000 µg/mL
CCC(C)CCCCCCC1CC(=O)NCC(=O)N[C@@H](CCCN)C(=O)N[C@@H](C(C)C)C(=O)N1 | IFM 40009 |  | 2.5 µg/mL
OC(Cn1cncn1)(Cn1cncn1)c1ccc(F)cc1F | E81113 |  | 50 µg/mL
COc1ccc(C2=NOC(c3cc4c([nH]3)CC(C)(C)CC4=O)C2)cc1 | ATCC 2091 |  | 200 µg/mL
O=C(/C=C1\Sc2ccccc2N1C1CCCCCC1)c1ccccc1 | ATCC 14053 |  | 50 µg/mL
C[C@@H](n1cnc2cc(N3CCN(C)CC3)ccc2c1=O)[C@](O)(Cn1cncn1)c1ccc(F)cc1F | 76 strains |  | 10 µg/mL
CCC(C)n1ncn(-c2ccc(N3CCN(c4ccc(OC[C@H]5CO[C@](Cn6cncn6)(c6ccc(Cl)cc6Cl)O5)cc4)CC3)cc2)c1=O | Isolate CA-1 |  | >8 µg/mL
COC1=CC(=O)[C@H]2O[C@@]2(C)[C@H]1O |  |  | 200 µg/mL
CCc1ccc(C(=O)Nc2ccc([N+](=O)[O-])cc2O)cc1 | ATCC 10231 |  | 62.5 µg/mL
COc1ccc(-c2[nH]c3ccccc3c2-c2c(CN)c(N)n3c(nc4cc(C)ccc43)c2CN)cc1 | MTCC 227 | broth dilution | 1000 µg/mL
C[C@@H]1[C@@H](COCC(=O)O)C[C@@H](O[C@H]2[C@H](O)[C@@H](N(Cc3ccccc3)CC(O)C[N+](C)(C)C)[C@H](O[C@H]3[C@H](O)[C@@H](N(Cc4ccccc4)CC(O)C[N+](C)(C)C)[C@H](C)O[C@@H]3COCC(=O)O)O[C@@H]2COCC(=O)O)[C@H](N(Cc2ccccc2)CC(O)C[N+](C)(C)C)[C@H]1O | RCMB 05031 | broth dilution | 35.25 µg/mL
CCCSc1cc(=S)ss1 | ATCC 10231 |  | 25 µg/mL
C[C@H](N)C(=O)N[C@H](C(=O)O)n1cc(F)c(=O)[nH]c1=O | B311 |  | 12.5 µg/mL
CSc1ccccc1NC1CCCCCCCCCCC1.CSc1ccccc1NC1CCCCCCCCCCC1 | ATCC 14053 |  | >100 µg/mL
Cc1ccc(CC(=O)Nc2ccc([N+](=O)[O-])cc2O)cc1 | ATCC 10231 |  | 250 µg/mL
CC1C=C(c2cccc3ccccc23)C(=O)O1 | ATCC 44859 |  | 62.5 µM
C[C@@H]1[C@@H](COCC(=O)O)C[C@@H](O[C@H]2[C@H](O)[C@@H](N(Cc3ccc(O)cc3)CC(O)C[N+](C)(C)C)[C@H](O[C@H]3[C@H](O)[C@@H](N(Cc4ccc(O)cc4)CC(O)C[N+](C)(C)C)[C@H](C)O[C@@H]3COCC(=O)O)O[C@@H]2COCC(=O)O)[C@H](N(Cc2ccc(O)cc2)CC(O)C[N+](C)(C)C)[C@H]1O | RCMB 05031 | broth dilution | 42.25 µg/mL
C[C@H](n1cnc2cc3ccccc3cc2c1=O)[C@](O)(Cn1cncn1)c1ccc(F)cc1F | 406 strains |  | ≤0.03 µg/mL
CS(=O)(=O)c1ccc(-c2[nH]c3ccccc3c2-c2c(CN)c(N)n3c(nc4ccccc43)c2CN)cc1 | MTCC 227 | broth dilution | 500 µg/mL
Cc1ccc(-c2csc(N3N=C(c4cccs4)CC3c3ccc(Cl)cc3)n2)cc1 | Clinical isolates |  | 125 µg/mL
Cc1cc(C)c2ncn([C@H](C)[C@](O)(Cn3cncn3)c3ccc(F)cc3F)c(=O)c2c1 | 406 strains |  | ≤0.15 µg/mL
Cc1nn(-c2ccccc2)c2c1C(c1ccc(O)cc1)C(C#N)=C(N)O2 | MTCC 227 |  | 150 µg/mL
COc1ccc(C2CC(c3cccs3)=NN2c2nc(-c3ccc(C)cc3)cs2)cc1 | Clinical isolates |  | 62.5 µg/mL
COc1ccc(C(=O)/C=C/c2cc3c([nH]2)CC(C)(C)CC3=O)cc1 | ATCC 2091 |  | 200 µg/mL
CCSc1ssc(=S)c1C | ATCC 10231 |  | 250 µg/mL
Cc1ccc2c(c1)S/C(=C\C(=O)C(C)C)N2C1=CCCCCC1 | ATCC 10231 |  | ≥100 µg/mL
NS(=O)(=O)c1ccc(C2C=C(c3ccc(Cl)cc3)CC2c2ccccc2)cc1 | ATCC 2091 |  | 200 µg/mL
CCSSc1ssc(=S)c1OC | ATCC 10231 |  | 12.5 µg/mL
C[C@@H](SC1COC(/C=C/C=C/c2ccc(C#N)cc2F)OC1)[C@](O)(Cn1cncn1)c1ccc(F)cc1F | SANK51486 |  | ≤0.008 µg/mL
CCCCCCCCCCCC[N+](C)(C)CSCCCCC | ATCC 10231 |  | 27.3 µM
O=S(=O)(NC(=S)Nc1ccccc1)c1ccc(N2N=C(c3ccc(Cl)cc3)C(Br)C2c2ccccc2)cc1 | ATCC 2091 |  | 12.5 µg/mL
CCSc1cc(=S)ss1 | ATCC 10231 |  | 50 µg/mL
O[C@](Cn1cncn1)(Cn1cnc(/C=C/c2ccc(OCC(F)(F)C(F)F)cc2)n1)c1ccc(F)cc1F | Isolate 02-96 |  | 4 µg/mL
CCC1C=C(c2ccc(C)cc2)C(=O)O1 | ATCC 44859 |  | >125 µM
COc1ccc(-c2csc(N3N=C(c4cccs4)CC3c3ccc([N+](=O)[O-])cc3)n2)cc1 | Clinical isolates |  | 125 µg/mL
C[C@@H](c1ncncc1F)[C@](O)(Cn1cncn1)c1ccc(F)cc1F | JL2052 (FLU-R) |  | 2 µg/mL
Nc1ccc(NC(=O)c2ccc(F)cc2)c(O)c1 | ATCC 10231 |  | 62.5 µg/mL
Fc1ccc(C2CC(c3cccs3)=NN2c2nc(-c3ccccc3)cs2)cc1 | Clinical isolates |  | 250 µg/mL
Nc1[nH]c(=O)ncc1F | 2968 |  | 0.5 µg/mL
C[C@@H](n1cnc2cc(Sc3ccccc3)ccc2c1=O)[C@](O)(Cn1cncn1)c1ccc(F)cc1F | 76 strains |  | 40 µg/mL
Cc1ccc(-c2csc(N3N=C(c4cccs4)CC3c3ccc(F)cc3)n2)cc1 | Clinical isolates |  | 125 µg/mL

A second listing of 7 rows from above:

SMILES,strain or isolate,method,result
C[C@@H](c1ncncc1F)[C@](O)(Cn1cncn1)c1ccc(F)cc1F,JL2052 (FLU-R),,2 µg/mL
CC[C@@H]([C@H](C)O)n1ncn(-c2ccc(N3CCN(c4ccc(OC[C@@H]5CO[C@@](Cn6cncn6)(c6ccc(F)cc6F)C5)cc4)CC3)cc2)c1=O,Isolate CA-6,,>4 µg/mL
CCC/C=C/C=C/C=C/C(=O)OCC1O[C@@H](OC2C(CO)O[C@]3(OCc4cc(O)cc(O)c43)[C@H](O)[C@H]2OC(=O)/C=C/C=C/CC(O)/C=C/C=C/C=C/CCC)[C@H](O)[C@@H](O)[C@H]1O,IAM4888,,0.2 µg/mL
Cc1ccc(CC(=O)Nc2ccc([N+](=O)[O-])cc2O)cc1,ATCC 10231,,250 µg/mL
Fc1ccc(C2CC(c3cccs3)=NN2c2nc(-c3ccccc3)cs2)cc1,Clinical isolates,,250 µg/mL
Cc1ccc2c(c1)S/C(=C\C(=O)C(C)C)N2C1=CCCCCC1,ATCC 10231,,≥100 µg/mL
C[C@@H](n1cnc2cc(Sc3ccccc3)ccc2c1=O)[C@](O)(Cn1cncn1)c1ccc(F)cc1F,76 strains,,40 µg/mL